Anti-infective test results gathered from many reports (values: NIAID ChemDB through PubChem).

All rows: growth or infection tests; organism: Mycobacterium tuberculosis

ECn is the concentration giving n% inhibition of infection, replication or growth. Two numbers with a dash give a range or band. MIC bound: limit read from a one-dose screen. MIC50, MIC90 and the like: level of inhibition, or share of isolates inhibited. Neighbouring rows are from separate reports. Percent inhibition refers to the dose given; in toxicity tests it is the harm to the cells. An empty or dashed field is not shown.

structure | strain | mutations | cell line | method | read-out | dose | value
CN1CCN(CCCN2c3ccccc3Sc3ccc(C(F)(F)F)cc32)CC1 | - | - | - | - | MIC50 | - | 4 µg/mL
COc1ccc2nc3cc(Cl)ccc3c(Nc3cc(CN4CCCC4)c(O)c(CN4CCCC4)c3)c2n1 | NTB1 | dprE1 G387S | - | resazurin | MIC | - | 5–10 µg/mL
CCOc1cc2oc3cc(OCC)c(C(C)=O)c(CC=C(C)C)c3c(=O)c2c(O)c1CC=C(C)C | H37Ra | - | - | resazurin | MIC | - | >200 µg/mL
C/C(=N/NC(=S)N1CCC(C)CC1)c1nccnc1C | RMP-R | - | - | - | MIC | - | 1.6 µg/mL
CCCCN(CCCC)N=Cc1c2c(O)c3c(O)c(C)c4c(c3c1O)C(=O)[C@@](C)(O/C=C/[C@H](OC)[C@@H](C)[C@@H](OC(C)=O)[C@H](C)[C@H](O)[C@H](C)[C@@H](O)[C@@H](C)/C=C/C=C(/C)C(=O)N2)O4 | H37Rv | - | - | - | EC50 | - | 0.5 µg/mL
CCCCCCCOc1ccc(NC(=O)OC(C)CN2CCCCC2)cc1 | My 331/88 | - | - | - | MIC | - | 8 µM
COc1ccc2c(c1)OC(c1ccc(Cl)cc1)CC2=O | - | - | - | - | inhibition | 12.5 µg/mL | 48%
O=C(CN1CCCCC1)NC(=O)N/N=C/c1ccco1 | H37Rv | - | - | BACTEC | MIC | - | ≥12.5 µg/mL
CCCSc1nc(C(N)=O)cnc1CC(C)C | H37Rv | - | - | - | inhibition | 12.5 µg/mL | <90%
Cc1cn2c(C(=O)NCc3ccc(N4CCN(c5ccc(C(F)(F)F)cn5)CC4)c(F)c3)c(C)nc2s1 | H37Rv | - | Human liver microsomes | luminescence | EC50 | - | 18.4 µM
O=C(Nn1c(=O)c(=O)oc2ccccc21)C(F)(F)F | H37Rv | - | VERO | BACTEC | MIC | - | 6.25 µg/mL
COc1c(OCC(N)=O)cc2oc3cc(OCC(N)=O)c(CCC(C)C)c(O)c3c(=O)c2c1CCC(C)C | H37Ra | - | - | resazurin | MIC | - | >200 µg/mL
CCSc1nc(C(N)=S)cnc1C(C)(C)C | H37Rv | - | - | - | inhibition | 12.5 µg/mL | <90%
CO[C@H]1/C=C/O[C@@]2(C)Oc3c(C)c(O)c4c(O)c(c(/C=N/N5CCN(C)CC5)c(O)c4c3C2=O)NC(=O)/C(C)=C\C=C\[C@H](C)[C@H](O)[C@@H](C)[C@@H](O)[C@@H](C)[C@H](OC(C)=O)[C@@H]1C | H37Rv | - | - | resazurin | MIC | - | 0.0039 µM
OCCN(CCO)Cc1nc2cc(Cl)c(Cl)cc2[nH]1 | H37Rv | - | - | resazurin | inhibition | 6.25 µg/mL | -33%
O=C(/C=C/c1cccc(O)c1)c1ccccc1O | - | - | - | - | inhibition | 12.5 µg/mL | 18%
CCCCSc1nc(C(N)=S)cnc1CCC | H37Rv | - | - | - | MIC | - | >12.5 µg/mL
CN(C)CCNc1ccc(NCCN(C)C)c2c1C(=O)c1ncsc1C2=O | H37Rv | - | - | BACTEC | MIC bound | - | >12.5 µg/mL
COc1cc2oc3cc(O)c(CC=C(C)C)c(O)c3c(=O)c2c(CC=C(C)C)c1C(C)=O | H37Ra | - | - | resazurin | MIC | - | 6.25 µg/mL
NC(=O)c1cnccn1 | Isolate 8251 | - | - | - | MIC | - | 900 µg/mL
Cl.O=C1C2CSCN2C(=O)CN1CCN1CCOCC1 | H37Rv | - | - | BACTEC | MIC bound | - | >12.5 µg/mL
CCCCCC(CC(=O)N1N=CCCC1C(=O)N[C@H]1COC(=O)C2C[C@@H](C)CNN2C(=O)[C@H](C)NC(=O)[C@@H](CC(C)C)NC1=O)C(=O)O | H37Rv | - | - | - | MBC | - | 25 µg/mL
COc1ccc(C2CC(=O)c3ccccc3O2)cc1 | H37Rv | - | - | - | EC50 | - | >12.5 µg/mL
COc1c(O)cc2oc3cc(OC(C)=O)c(CCC(C)C)c(O)c3c(=O)c2c1CCC(C)C | H37Ra | - | - | resazurin | MIC | - | 3.12 µg/mL
Cc1cn2c(C(=O)NCc3cccc(C(F)(F)F)c3)c(C)nc2s1 | H37Rv | - | - | luminescence | MIC | - | 6.35 µM
CCCCSc1nc(C(N)=O)cnc1CC(C)C | H37Rv | - | - | - | MIC | - | >12.5 µg/mL
CCCCCCOc1ccccc1NC(=O)OCCN1CCCCC1 | My 331/88 | - | - | - | MIC | - | 32 µM
Cc1cn2c(C(=O)NCc3ccccc3C(F)(F)F)c(C)nc2s1 | H37Rv | - | - | resazurin / fluorescence | MIC | - | >1 µM
CCc1nc2ccc(C)cn2c1C(=O)NCc1ccc(N2CCN(S(=O)(=O)C(F)(F)F)C(C3CC3)=N2)cc1 | - | - | - | GFP | EC50 | - | 0.0012 µM
Cc1cn2c(C(=O)NCc3ccc(C(F)(F)F)cc3)c(C)nc2s1 | H37Rv | QcrB4 A396T | - | resazurin / fluorescence | MIC | - | 0.07 µM
COc1ccc(C2OC3=C(Nc4cc(C)c(C)cc4N3)C2=O)cc1 | H37Rv | - | - | BACTEC | MIC bound | - | >12.5 µg/mL
CO[C@H]1/C=C/O[C@@]2(C)Oc3c(C)c(O)c4c(O)c(c(/C=N/OCCN5CCOCC5)c(O)c4c3C2=O)NC(=O)/C(C)=C\C=C\[C@H](C)[C@H](O)[C@@H](C)[C@@H](O)[C@@H](C)[C@H](OC(C)=O)[C@@H]1C | H37Rv | - | - | - | EC50 | - | 0.5 µg/mL
CCCc1c(C(=O)OCC)[nH]c(-c2ccc(-c3[nH]c(C(=O)OCC)c(CCC)c3C(=O)OCC)o2)c1C(=O)OCC | H37Rv | - | - | BACTEC | inhibition | 12.5 µg/mL | 2%
CO[C@H]1/C=C/O[C@@]2(C)Oc3c(C)c(O)c4c(=O)c(c5oc6cc(N7CCN(CC(C)C)CC7)cc(=O)c6nc5c4c3=C2O)NC(=O)/C(C)=C\C=C\[C@H](C)[C@H](O)[C@@H](C)[C@@H](O)[C@@H](C)[C@H](OC(C)=O)[C@@H]1C | 16 strains (rifampicin-susceptible) | - | - | - | MIC90 | - | 12.5 µg/mL
COc1ccc(C2CC(=O)c3c(OC)cc(OC)c(I)c3O2)cc1 | H37Rv | - | - | - | inhibition | 12.5 µg/mL | 0%
Cc1ccsc1C(=S)Nc1ccc(Cl)c(/C=N/OC(C)C)c1 | H37Rv | - | - | BACTEC | MIC bound | - | ≤12.5 µg/mL
NNC(=O)c1ccncc1 | Ty1 | Rv3405c c190t | - | resazurin | MIC | - | 0.025 µg/mL
CN[C@@H]1[C@H](O[C@H]2[C@H](O[C@H]3[C@H](O)[C@@H](O)[C@H](N=C(N)N)[C@@H](O)[C@@H]3N=C(N)N)O[C@@H](C)[C@]2(O)C=O)O[C@@H](CO)[C@H](O)[C@H]1O | M-4 | MDR | - | resazurin | MIC | - | >8 µg/mL
CCCCc1ncc(C(N)=O)nc1Sc1ccccc1 | H37Rv | - | - | - | MIC | - | >6.25 µg/mL
COc1ccc(C(=O)N2CCN(c3ccc4c(c3)OCC(=O)N4)CC2)cc1 | H37Rv | - | - | resazurin | inhibition | 6.25 µg/mL | 18%
COc1ccc(C2Oc3cc(F)ccc3C(=O)C2OC(C)=O)cc1 | H37Rv | - | - | - | inhibition | 12.5 µg/mL | 50%
CO[C@H]1/C=C/O[C@@]2(C)Oc3c(C)c(O)c4c(O)c(c(/C=N/N5CCCC5)c(O)c4c3C2=O)NC(=O)/C(C)=C\C=C\[C@H](C)[C@H](O)[C@@H](C)[C@@H](O)[C@@H](C)[C@H](OC(C)=O)[C@@H]1C | H37Rv | - | - | - | EC50 | - | 0.1 µg/mL
Cc1cn2c(C(=O)NCc3ccc(N4CCN(c5ccc(C(F)(F)F)cn5)CC4)c(F)c3)c(C)nc2s1 | H37Rv | K14b00DS | - | resazurin / fluorescence | MIC | - | 0.125 µM
CCN(CC)/N=C/c1c2c(O)c3c(O)c(C)c4c(c3c1O)C(=O)[C@@](C)(O/C=C/[C@H](OC)[C@@H](C)[C@@H](OC(C)=O)[C@H](C)[C@H](O)[C@H](C)[C@@H](O)[C@@H](C)/C=C/C=C(/C)C(=O)N2)O4 | H37Rv | - | - | - | EC50 | - | 0.02 µg/mL
S=C(S)NCCCn1ccnc1 | H37Rv | - | - | BACTEC | MIC | - | ≥128 µg/mL
CCc1nc2ncc(Cl)cn2c1C(=O)NCc1ccc(N2CCC(S(=O)(=O)C(F)(F)F)C=N2)cc1 | - | - | - | GFP | EC50 | - | 0.004 µM
CC(C)[C@H]1C(=O)N2CCC[C@H]2[C@]2(O)O[C@](NC(=O)[C@@H]3C=C4c5cccc6[nH]cc(c56)C[C@H]4N(C)C3)(C(C)C)C(=O)N12 | H37Rv | - | - | BACTEC | MIC bound | - | >12.5 µg/mL
Cc1cn2c(C(=O)NCc3ccc(N4CCC(c5ccc(OC(F)(F)F)cc5)CC4)cc3)c(C)nc2s1 | H37Rv | - | - | luminescence | MIC | - | 1.31 µM
COc1c(OC(=O)c2ccccc2)cc2oc3cc(O)c(CCC(C)C)c(O)c3c(=O)c2c1CCC(C)C | H37Ra | - | - | resazurin | MIC | - | 3.12 µg/mL
CC[C@H](C)N1CCN(c2cc(=O)c3nc4c(oc3c2)c2c(=O)c3c(O)c(C)c5c(c34)=C(O)[C@@](C)(O/C=C/[C@H](OC)[C@@H](C)[C@@H](OC(C)=O)[C@H](C)[C@H](O)[C@H](C)[C@@H](O)[C@@H](C)/C=C/C=C(/C)C(=O)N2)O5)CC1 | 6 strains (rifampicin-resistant) | - | - | - | MIC50 | - | ≤0.0125 µg/mL
CCCCOc1cccc(NC(=O)OC(C)CN2CCCCC2)c1 | My 331/88 | - | - | - | MIC | - | 62.5 µM
O=[N+]([O-])c1ccc(Cl)c(C=NC23CC4CC(CC(C4)C2)C3)c1 | H37Rv | - | - | BACTEC | MIC bound | - | >12.5 µg/mL
CC(C)(C)c1ncc(C(N)=O)nc1Sc1ccccc1 | H37Rv | - | - | - | MIC | - | >12.5 µg/mL
COc1cc2oc3cc(O)c(CCC(C)C)c(O)c3c(=O)c2c(CCC(C)C)c1C(C)=O | H37Ra | - | - | resazurin | MIC | - | 0.78 µg/mL
CC(=O)NC[C@H]1CN(c2ccc(N3CCOCC3)c(F)c2)C(=O)O1 | - | - | - | - | MIC50 | - | 0.25 µg/mL
CO[C@H]1/C=C/O[C@@]2(C)Oc3c(C)c(O)c4c(O)c(c(/C=N/N5CCN(C)CC5)c(O)c4c3C2=O)NC(=O)/C(C)=C\C=C\[C@H](C)[C@H](O)[C@@H](C)[C@@H](O)[C@@H](C)[C@H](OC(C)=O)[C@@H]1C | M8 | - | - | resazurin | MIC | - | >2 µg/mL
NC(=O)NC(=O)C1CCC(=O)N1S(=O)(=O)c1ccc(Cl)cc1 | H37Rv | - | - | BACTEC | MIC bound | - | >12.5 µg/mL
Cc1cn2c(C(=O)NCc3ccc(N4CCOCC4)c(F)c3)c(C)nc2s1 | H37Rv | K14b00DS | - | resazurin / fluorescence | MIC | - | 0.37 µM
NC1NN=C2N=C(CC(=O)c3ccccc3)C(CC(=O)c3ccccc3)=NN21 | H37Rv | - | - | BACTEC | MIC bound | - | >12.5 µg/mL
CCc1nc2ccc(C)cn2c1C(=O)NCc1ccc(N2CCN(S(=O)(=O)C(F)(F)F)C(C(=O)N(C)C)=N2)cc1 | - | - | - | GFP | EC50 | - | 0.012 µM
CCCCCOc1ccccc1NC(=O)OC(C)CN1CCCCC1 | My 331/88 | - | - | - | MIC | - | 62.5 µM
CO[C@H]1/C=C/O[C@@]2(C)Oc3c(C)c(O)c4c(O)c(c(C=Nc5ccc6ccccc6c5)c(O)c4c3C2=O)NC(=O)/C(C)=C\C=C\[C@H](C)[C@H](O)[C@@H](C)[C@@H](O)[C@@H](C)[C@H](OC(C)=O)[C@@H]1C | H37Rv | - | - | - | EC50 | - | >1 µg/mL
NC[C@@H]1O[C@H](O[C@H]2[C@@H](O)[C@H](O[C@@H]3[C@@H](O)[C@H](N)C[C@H](N)[C@H]3O[C@H]3O[C@H](CO)[C@@H](O)[C@H](O)[C@H]3N)O[C@@H]2CO)[C@H](N)[C@@H](O)[C@@H]1O | - | - | - | - | MIC90 | - | 32 µg/mL
Cc1cn([C@H]2C[C@H](F)[C@@H](CO)O2)c(=O)[nH]c1=O | H37Rv | - | - | resazurin | inhibition | 6.25 µg/mL | -7%
CCc1nc2sc(C)cn2c1C(=O)NCc1ccc(N2CCN(S(=O)(=O)C(F)(F)F)C=N2)cc1 | - | - | - | GFP | EC50 | - | 0.0032 µM
COC(=O)C(Cc1c[nH]c2ccccc12)NC(=O)c1ccccc1NC(=O)OCc1ccccc1 | H37Rv | - | - | BACTEC | inhibition | 12.5 µg/mL | -6%
CCc1nc2ccc(Cl)cn2c1C(=O)NCc1ccc(N2CCN(S(=O)(=O)C(F)(F)F)C=N2)cc1.Cl | - | - | - | GFP | EC50 | - | 0.0091 µM
CC(C)(C)c1ncc(C(N)=S)nc1Sc1ccccc1 | H37Rv | - | - | - | inhibition | 12.5 µg/mL | <90%
O=C(/C=C/c1ccco1)c1ccc(Br)cc1O | H37Rv | - | - | - | inhibition | 12.5 µg/mL | 17%
O=Cc1cn(CCCCCn2cc(C=O)c3ccccc32)c2ccccc12 | H37Rv | - | - | BACTEC | MIC bound | - | >12.5 µg/mL
CCCCc1ncc(C(N)=S)nc1Sc1ccccc1 | H37Rv | - | - | - | inhibition | 12.5 µg/mL | 91%
NNC(=O)CNC(c1ccccc1)(c1ccccc1)c1ccccc1 | H37Rv | - | - | BACTEC | inhibition | 12.5 µg/mL | -6%
CC(COc1ccccc1)NC(C)C(O)c1ccc(O)cc1 | - | - | - | - | MIC90 | - | >128 µg/mL
Cn1cc(NC(=O)c2cc(NC(=O)CN=C(N)N)cn2C)c(C(=O)NCCC(=N)N)c1 | H37Rv | - | - | BACTEC | MIC | - | 16 µg/mL
CCCc1ncc(C(N)=O)nc1Sc1ccccc1 | H37Rv | - | - | - | inhibition | 12.5 µg/mL | <90%

Repeating the first 4 entries:

CN1CCN(CCCN2c3ccccc3Sc3ccc(C(F)(F)F)cc32)CC1 ; read-out: MIC50 ; value: 4 µg/mL
COc1ccc2nc3cc(Cl)ccc3c(Nc3cc(CN4CCCC4)c(O)c(CN4CCCC4)c3)c2n1 ; strain: NTB1 ; mutations: dprE1 G387S ; method: resazurin ; read-out: MIC ; value: 5–10 µg/mL
CCOc1cc2oc3cc(OCC)c(C(C)=O)c(CC=C(C)C)c3c(=O)c2c(O)c1CC=C(C)C ; strain: H37Ra ; method: resazurin ; read-out: MIC ; value: >200 µg/mL
C/C(=N/NC(=S)N1CCC(C)CC1)c1nccnc1C ; strain: RMP-R ; read-out: MIC ; value: 1.6 µg/mL